Data from paper PMC6534853.
No signal at the amounts used counts as a negative. Construct, isoform or probe ends are uncertain for at least one entry.

Test system: CpxR-P (phosphorylated CpxR)
Assay: EMSA
Details: acetyl phosphate-phosphorylated CpxR, 5 mM Mg2+, 0.1 mM Mn2+, 10 mM Tris (pH not stated), 50 mM KCl, 5 mM MgCl2, 1 mM DTT, 0.1 mM MnCl2, 2.5% glycerol, 50 ng/uL poly[dI-dC], 40 ng probe, 30 min, room temperature, recombinant protein, residues 1-232, protein details: His (pET28a), label: biotin, probe letters rebuilt from the primers and the genome

AGCTTATGTAATCGTGTTCTGAAATTGACTAAAAATATATTTAAACACCATAAAAGAGTTTTTCGGTAGGTGCTAATTACGTGTGCCTGTAACTCGAATAAAGAAAAGGGTGTGGTTCCTGATGTGAGCCGCATCACACTCTAACCTGTCGGGGATTAACGACGGGTTGTTCGTAAAACAGCAGTTGATAATTTCACAAGGAGTTCATAAATGCCAACCCCATG (double strand) [hcp2B promoter fragment with CpxR site]
binding result (abolished by excess unlabeled N1): binds

CATGGGGTTGGCATTTATGAACTCCTTGTGAAATTATCAACTGCTGTTTTACGAACAACCCGTCGTTAATCCCCGACAGGTTAGAGTGTGATGCGGCTCACATCAGGAACCACACCCTTTTCTTTATTCGAGTTACAGGCACACGTAATTAGCACCTACCGAAAAACTCTTTTATGGTGTTTAAATATATTTTTAGTCAA (double strand) [hcp2B promoter fragment without CpxR site]
binding result: no binding
